Anti-infective test results gathered from many reports (values: NIAID ChemDB through PubChem).

Shared fields: tests in culture; species: Mycobacterium tuberculosis

Percent inhibition refers to the dose given; in toxicity tests it is the harm to the cells. ECn: concentration that inhibits the pathogen or its effect by n%. MIC bound comes from a single tested concentration. A number after MIC or MFC names an inhibition level or a share of isolates. Neighbouring rows are from separate reports. An empty or dashed field is not shown.

smiles,strain or isolate,changes,cells,read by,read-out,dose,result
CCN1CCN(c2nc(=O)c3cc(C(F)(F)F)cc(C(=O)O)c3s2)CC1,H37Rv,,,resazurin,MIC,,0.062 µg/mL
O=C(c1cn[nH]n1)c1ccc(Br)cc1Br,H37Rv,,,,MIC,,>12.5 µg/mL
C#CCn1ncc2c(SC)ncnc21,H37Rv,,,BACTEC,inhibition,12.5 µg/mL,90%
CCCCOc1ccc(NC(=O)OC(C)CN2CCCCC2)cc1,My 331/88,,,,MIC,,62.5 µM
O=C(c1cn(-c2ccc(Cl)cc2)nn1)c1ccco1,H37Rv,,,,MIC,,>12.5 µg/mL
COc1ccc(-c2noc(C3=CC4(CCN(CC(C)O)CC4)c4ccccc43)n2)cc1,H37Rv,,,resazurin,MIC,,0.8 µM
[O-][N+]12CCCCC1CCCC2CO,H37Rv,,,BACTEC,MIC,,≥128 µg/mL
[N-]=[N+]=NC(CI)c1cn(COC(CO)CO)c(=O)[nH]c1=O,H37Ra,,,,EC50,,>100 µg/mL
OCCOCn1nncc1Cn1ncc2c(NCc3ccccc3)ncnc21,H37Rv,,,BACTEC,inhibition,6.25 µg/mL,11%
CC(=O)NC(CCCCC(=O)NN)C(=O)NN,H37Rv,,,,MIC,,>200 µg/mL
O=C(O)/C=C/c1ccccc1,90-0145 (DRUG-SUS),,,,MIC,,200 µg/mL
O=c1[nH]cnc2c1cnn2Cc1cn(COCCO)nn1,H37Rv,,,BACTEC,EC50,,>12.5 µg/mL
CCCSc1nn2cc(NC(=O)OC)nc2s1,H37Rv,,,BACTEC,inhibition,12.5 µg/mL,17%
CCCCOc1cccc(NC(=O)OC(COCC)CN2CCCCC2)c1,My 331/88,,,,MIC,,62.5 µM
O=C1c2ccccc2C(=O)c2c(Nc3ccc(S(=O)(=O)N(CCO)CCO)cc3)ccc(O)c21,H37Rv,,,BACTEC,MIC bound,,>12.5 µg/mL
CCCCCOC(=O)c1cn(-c2ccccn2)nn1,H37Rv,,,,MIC,,>6.25 µg/mL
Cn1c(NC(=O)C(=O)NC23CC4CC(CC(C4)C2)C3)nc2ccccc21,,,,BACTEC,inhibition,0.5 µM,0%
CCCCCOc1cccc(NC(=O)OCCN2CCCCC2)c1,My 331/88,,,,MIC,,32 µM
O=C(Cc1nc2ccccc2[nH]c1=O)N/N=C/c1ccc2c(c1)CCC2,H37Rv,,,BACTEC,inhibition,12.5 µg/mL,-5%
COc1ccc(-c2noc(C3=CC4(CCN(CC(N)=O)CC4)c4ccccc43)n2)cc1,H37Rv,,,resazurin,MIC,,50 µM
COc1ccc(C(=O)c2cn(-c3ccc(Cl)cc3)nn2)cc1,H37Rv,,,,inhibition,12.5 µg/mL,0%
NNC(=O)C1CCCC(=O)N1,H37Rv,,,,MIC,,>20 µg/mL
C[C@H](O)[C@H]1C(=O)N2C(C(=O)O)=C(S[C@@H]3CN[C@H](C(=O)N(C)C)C3)[C@H](C)[C@H]12,H37Rv,,THP-1,luminescence,MIC50,,6.78 µM
O=C1c2ccccc2S(=O)(=O)N1CSC(=S)N1CCC(Cc2ccccc2)CC1,H37Rv,,,,inhibition,6.25 µg/mL,5%
Nc1nc(N)c2nnsc2n1,H37Rv,,,resazurin,inhibition,6.25 µg/mL,10%
c1ccc2cc3c(cc2c1)nc1c2ccccc2ncn31,H37Rv,,,resazurin,MIC99,,>25 µg/mL
O=C(c1cn(-c2ccccc2)nn1)c1ccc(Br)cc1Br,H37Rv,,,,inhibition,12.5 µg/mL,29%
NC[C@H]1O[C@H](O[C@H]2[C@H](O)[C@@H](O[C@H]3O[C@H](CO)[C@@H](O)[C@H](N)[C@H]3O)[C@H](N)C[C@@H]2N)[C@H](O)[C@@H](O)[C@@H]1O,Isolate CKN64-20 (rrs A1401G mutation),,,,MIC,,>80 µg/mL
CO[C@H]1CCC[C@H]2C1=C(C(=O)O)N1C(=O)[C@H]([C@@H](C)O)[C@@H]21,H37Rv,,,MTT,MIC,,1.6 µM
CC(C)COC(=S)SCN1C(=O)c2ccccc2S1(=O)=O,H37Rv,,,,inhibition,6.25 µg/mL,78%
CC(=O)c1cn(O)nn1,H37Rv,,,,inhibition,12.5 µg/mL,12%
Nc1ncnc2c1cnn2Cc1cnnn1COCCO,H37Rv,,,BACTEC,EC50,,>12.5 µg/mL
CC1(C)OCC([C@H]2O[C@@H]3OC(C)(C)O[C@@H]3/C2=N/NC(=O)c2cc3cc(OCc4ccccc4)ccc3[nH]2)O1,H37Rv,,VERO,BACTEC,MIC,,12.5 µg/mL
NC(=O)c1cnccn1,Erdman,,,,MIC,,50 µg/mL
CCOC(=O)c1cn(-c2ccc(-c3ccccc3)nn2)nn1,H37Rv,,,,inhibition,6.25 µg/mL,4%
COc1ccc(-c2noc(C3=CC4(CCN(CC5CCCO5)CC4)c4ccccc43)n2)cc1,912253,Isoniazid-resistant,,resazurin,MIC,,0.39 µM
C[C@@H](O)[C@H]1C(=O)N2C(C(=O)O)=C([C@H]3CCCO3)S[C@H]12,H37Rv,,THP-1,luminescence,MIC50,,1.85 µM
COc1ccc2c3c(c(=O)n(C)c2c1OC)C=CC(C)(C)O3,H37Rv,,,BACTEC,inhibition,12.5 µg/mL,12%
CC(O)C1C(=O)N2C(C(=O)O)C=C(SC3CN(C4=NCCC4)C3)C12,H37Rv,,THP-1,luminescence,MIC50,,4.51 µM
Fc1ccc2ncn3c4ccccc4nc3c2c1,H37Rv,,,resazurin,MIC99,,6.25 µg/mL
NC(CCC(=O)O)CCC(=O)O,H37Rv,,,,MIC,,>1000 µg/mL
CN1CCN(c2nc(=O)c3cc(C(F)(F)F)cc(C(=O)O)c3s2)CC1,H37Rv,,,resazurin,MIC,,0.25 µg/mL
O=C(O)CCCCC(=O)O,H37Rv,,,,MIC,,>100 µg/mL
O=c1[nH]c(=O)n(COCCO)cc1F,H37Ra,,,,EC50,,>100 µg/mL
CCCc1nc2ccc(Cl)cc2c2nc3ccccc3n12,H37Rv,,,resazurin,MIC99,,>25 µg/mL
CN1CCN(C(=S)SCN2C(=O)c3ccccc3S2(=O)=O)CC1,H37Rv,,,,inhibition,6.25 µg/mL,99%
O=C(c1cn(-c2ccccc2)nn1)c1ccco1,H37Rv,,,,MIC,,>12.5 µg/mL
COC(=O)c1cn(-c2cccnn2)nn1,H37Rv,,,,inhibition,6.25 µg/mL,2%
O=C1c2ccccc2S(=O)(=O)N1CSC(=S)N1CCCC1,H37Rv,,,,MIC,,0.78 µg/mL
C1=C(c2nc(-c3ccncc3)no2)c2ccccc2C12CCN(CC1CCCO1)CC2,H37Rv,,,resazurin,MIC,,6.3 µM
NNC(=O)C1CCC(=O)N1,H37Rv,,,,MIC,,>100 µg/mL
CCCCCCOc1ccccc1NC(=O)OCCN1CCCCC1,My 331/88,,,,MIC,,16 µM
CO[C@H]1/C=C/O[C@@]2(C)Oc3c(C)c(O)c4c(O)c(c(/C=N/N5CCN(C)CC5)c(O)c4c3C2=O)NC(=O)/C(C)=C\C=C\[C@H](C)[C@H](O)[C@@H](C)[C@@H](O)[C@@H](C)[C@H](OC(C)=O)[C@@H]1C,90-0145 (DRUG-SUS),,,,MIC,,0.4 µg/mL
NCCCN(CCCN)CCCNCc1c2ccccc2c(CNCCCN(CCCN)CCCN)c2ccccc12,H37Rv,,,BACTEC,inhibition,12.5 µg/mL,0%
O=C(O)c1cc(C(F)(F)F)cc2c(=O)nc(N3CCN(CCCCOc4ccccc4)CC3)sc12,H37Rv,,,resazurin,MIC,,0.0015 µg/mL
CC1(C)OC2COC3OC(C)(C)OC3(/C=N/NC(=O)c3cc4ccccc4[nH]3)C2O1,H37Rv,,,BACTEC,inhibition,12.5 µg/mL,22%
NNC(=O)c1ccncc1,90-0145 (DRUG-SUS),,,,MIC,,0.04 µg/mL
O=C(CNC1=NCCN1)Nc1ccc(NC(=O)c2ccc(C(=O)Nc3ccc(NC(=O)CNC4=NCCN4)cc3)cc2)cc1,H37Rv,,,BACTEC,inhibition,12.5 µg/mL,96%
NNC(=O)c1ccncc1,WH 51/02,,,,MIC,,0.062 µg/mL
CC[C@H]1OC(=O)[C@H](C)C(=O)[C@H](C)[C@@H](O[C@@H]2O[C@H](C)C[C@H](N(C)C)[C@H]2O)[C@](C)(OC)C[C@@H](C)C(=O)[C@H](C)[C@H]2N(CCCCn3cnc(-c4cccnc4)c3)C(=O)O[C@]12C,H37Rv,,,,MIC,,>40 µg/mL
Cc1cc(O)c2c(c1)C(=O)C=CC2=O,WH 51/02,,,,MIC,,0.5 µg/mL
CCOC(=O)/C(Cc1cnccn1)=N/O,H37Rv,,,BACTEC,inhibition,12.5 µg/mL,8%
CCCCCCCCCCC#Cc1cn(COCCO)c(=O)n(C#CCCCCCCCCCC)c1=O,H37Ra,,,,EC50,,>100 µg/mL
CCOC(=O)CCC1=NNC(=O)CC1,H37Rv,,,,MIC,,500 µg/mL
CN(c1ccccc1)c1c2c(oc(=O)c1Cl)-c1ccccc1SC2,H37Rv,,,BACTEC,inhibition,12.5 µg/mL,-5%
CC(C)=NNC(=O)CCCCC(=O)O,H37Rv,,,,MIC,,500 µg/mL
CCCCCCCCCCC#Cc1cn(COC(CO)CO)c(=O)[nH]c1=O,H37Ra,,,,EC50,,10 µg/mL
COc1ccn(C2OC(COC(C)=O)C(OC3OC(COC(C)=O)C(OC(C)=O)C(OC(C)=O)C3OC(C)=O)C(OC(C)=O)C2OC(C)=O)c(=O)n1,H37Rv,,,BACTEC,MIC bound,,>12.5 µg/mL
CCCCCOC(=O)c1cn(-c2ccc(-c3ccccc3)nn2)nn1,H37Rv,,,,MIC,,3.13 µg/mL
CCc1nc2ccc(Br)cc2c2nc3ccccc3n12,H37Rv,,,resazurin,MIC99,,12.5 µg/mL
COc1c(N2CCNC(C)C2)c(F)cc2c(=O)c(C(=O)O)cn(C3CC3)c12,263 strains,,,,MIC,,2 µg/mL
CCC1=CC(=O)C(CC)=CC1=O,H37Rv,,,BACTEC,MIC,,64 µg/mL
O=C(c1ccccc1)c1cn(-c2cccc3ccccc23)nn1,H37Rv,,,,MIC,,>12.5 µg/mL
NC(=O)c1cnccn1,H37Rv,,,resazurin,MIC99,,6.25 µg/mL
Oc1ccc2ccccc2c1/C=N/Nc1ccc2ccccc2n1,H37Rv,,,BACTEC,inhibition,12.5 µg/mL,97%
CN[C@@H]1[C@H](O[C@H]2[C@H](O[C@H]3[C@H](O)[C@@H](O)[C@H](N=C(N)N)[C@@H](O)[C@@H]3N=C(N)N)O[C@@H](C)[C@]2(O)C=O)O[C@@H](CO)[C@H](O)[C@H]1O,18b+,Drug-resistant,,resazurin,MIC,,0.5 µM
O=C(O)c1cc(C(F)(F)F)cc2c(=O)nc(N3CCN(C4CCCCC4)CC3)sc12,H37Rv,,,resazurin,MIC,,0.00075 µg/mL
NC(=O)CCC1=NNC(=O)CC1,H37Rv,,,,MIC,,500 µg/mL
COc1ccc(-c2noc(C3=CC4(CCN(CC(=O)N(C)C)CC4)c4ccccc43)n2)cc1,H37Rv,,,resazurin,MIC,,6.3 µM
NC(=O)c1csc([C@@H]2O[C@H](COP(=O)(O)OP(=O)(O)OC[C@H]3O[C@@H](n4cnc5c(N)ncnc54)[C@H](O)[C@@H]3O)[C@@H](O)[C@H]2O)n1,H37Rv,,,BACTEC,inhibition,12.5 µg/mL,-14%
CCCCc1nc2ccccc2c2nc3cc4ccccc4cc3n12,H37Rv,INH resistant,,resazurin,MIC99,,12.5 µg/mL
O=C1c2ccccc2S(=O)(=O)N1CSC(=S)N1CCOCC1,H37Rv,,,,inhibition,6.25 µg/mL,100%
Cc1nn2c(=O)c([N+](=O)[O-])c(/C=C/c3ccco3)nc2s1,H37Rv,,,resazurin,MIC bound,,>6.25 µg/mL
C/C=C/C/C=C/CCC(=O)[C@H]1O[C@H]1C(N)=O,90-0145 (DRUG-SUS),,,,MIC,,2.5 µg/mL
C/C=C1/CN2[C@H]3C[C@@]45c6ccccc6N(C)[C@H]4[C@@H]2C[C@@H]1[C@@H]3[C@H]5O,H37Rv,,,BACTEC,MIC bound,,>12.8 µg/mL
CCCCc1nc2ccc(Cl)cc2c2nc3ccccc3n12,H37Rv,,,resazurin,MIC99,,25 µg/mL
O=C1c2ccccc2C(=O)c2c(NC(=O)c3ccc4c5c(ncnc35)-c3ccccc3C4=O)cccc21,H37Rv,,,BACTEC,MIC bound,,>12.5 µg/mL
COc1ncnc2c1cnn2Cc1cn(COCCO)nn1,H37Rv,,,BACTEC,inhibition,6.25 µg/mL,57%

For reference, 6 entries again:

CC[C@H]1OC(=O)[C@H](C)C(=O)[C@H](C)[C@@H](O[C@@H]2O[C@H](C)C[C@H](N(C)C)[C@H]2O)[C@](C)(OC)C[C@@H](C)C(=O)[C@H](C)[C@H]2N(CCCCn3cnc(-c4cccnc4)c3)C(=O)O[C@]12C ; strain or isolate: H37Rv ; read-out: MIC ; result: >40 µg/mL
CCc1nc2ccc(Br)cc2c2nc3ccccc3n12 ; strain or isolate: H37Rv ; read by: resazurin ; read-out: MIC99 ; result: 12.5 µg/mL
C1=C(c2nc(-c3ccncc3)no2)c2ccccc2C12CCN(CC1CCCO1)CC2 ; strain or isolate: H37Rv ; read by: resazurin ; read-out: MIC ; result: 6.3 µM
O=C1c2ccccc2C(=O)c2c(Nc3ccc(S(=O)(=O)N(CCO)CCO)cc3)ccc(O)c21 ; strain or isolate: H37Rv ; read by: BACTEC ; read-out: MIC bound ; result: >12.5 µg/mL
CCOC(=O)CCC1=NNC(=O)CC1 ; strain or isolate: H37Rv ; read-out: MIC ; result: 500 µg/mL
CC(C)=NNC(=O)CCCCC(=O)O ; strain or isolate: H37Rv ; read-out: MIC ; result: 500 µg/mL